What was measured:
Rev protein [1] = target: Rev protein (HIV-1, UniProt P04618 P04618:1-116); experiment: SPR; printed as Kp; details: tags: full-length
Rev protein [2] = target: Rev protein (HIV-1, UniProt P04618 P04618:1-116); experiment: SPR; printed as Kp; details: tags: full-length; label: biotin (SPR surface) or 5'-32P (filter); hammerhead ribozyme

The chains behind the UniProt entries cited, without tags or fusion partners.
UniProt P04618, whole entry: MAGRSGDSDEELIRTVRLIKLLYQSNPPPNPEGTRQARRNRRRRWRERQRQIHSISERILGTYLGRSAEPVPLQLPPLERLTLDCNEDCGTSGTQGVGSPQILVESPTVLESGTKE

Binder	Kd (Rev protein [1]) [nM]	Kd (Rev protein [2]) [nM]
AIR (aptamer-inhibited ribozyme) (ssRNA) RNA: GGGACUCGCUUCGGCUUGAGAUACCAAAAAGGGUCCUCUGAUGAGGCCGUUAGGCCGAAACUCGU	1.3	–
RRR (Rev-responsive ribozyme, RBE in stem II) (ssRNA) RNA: GGGUCCUCUGAUGAGCUCUGGGCGCAGCUUCGGCUGACGGUACUUGCGAAACUCGU	–	1.4

Source: US20050202423A1, “Method for identifying compounds or lead structures against rna target motifs and rna/protein interactions” (priority 2000, published 2005)
